From publication PMC7038234, “Screening of Natural Extracts for Inhibitors against Japanese Encephalitis Virus Infection” (Antimicrobial Agents and Chemotherapy, 2020)

Key:
JEV strain AT31 [1] = test: microbe, parasite or virus in culture; settings: Japanese encephalitis virus, 24 h; for IC50: Vero
JEV strain AT31 [2] = settings: Vero cells, JEV
JEV strain AT31 [3] = test: Immunofluorescence staining assay (IFA), AT31 infection of Vero cells; settings: Japanese encephalitis virus, read-out: inhibition rate
JEV strain AT31 [4] = test: Time-of-addition experiment (plaque assay); format: cell-based, Japanese encephalitis virus; settings: for inhibition of JEV posttreatment: postinfection (1 to 24 h); for suppression of JEV in pretreatment: preinfection (−1 to 0 h); for suppression of JEV in virucidal treatment: virus incubated with drug 1 μM, 37°C, 1 h, diluted 100-fold
[5] = primary screening of 1034 compounds in the natural extracts library, red numbers = obvious cytotoxicity, blue numbers = insoluble in DMSO (colours not visible)
[6] = Primary screening of 1034 compounds in the natural extracts library

| SMILES | IC50 (JEV strain AT31 [1]) [µM] | inhibition at 50 µM (JEV strain AT31 [1]; [6]) [%] | other results |
| --- | --- | --- | --- |
| COC1=CC23CCCN2CCc2cc4c(cc2C3C1O)OCO4 (stereo not drawn) [cephalotaxlen] | 1.33 |  | inhibition at 50 µM (JEV strain AT31 [1]; [5]): 92.2%; SI (CC50/IC50) (JEV strain AT31 [2]): > 74.91 |
| C[C@H]1O[C@@H](O[C@H]2[C@@H](O)C[C@H](O[C@H]3[C@@H](O)C[C@H](O[C@H]4CC[C@@]5(C)[C@H](CC[C@@H]6[C@@H]5C[C@@H](O)[C@]5(C)[C@@H](C7=CC(=O)OC7)CC[C@]65O)C4)O[C@@H]3C)O[C@@H]2C)C[C@H](O)[C@@H]1O [digoxin] | 0.103 |  | inhibition at 0.392 µM (JEV strain AT31 [3]): > 90%; inhibition of JEV posttreatment (JEV strain AT31 [4]; 10 μM): full inhibitory effects; suppression of JEV in pretreatment (JEV strain AT31 [4]; 10 μM): neither digoxin nor ouabain showed suppression; suppression of JEV in virucidal treatment (JEV strain AT31 [4]): neither digoxin nor ouabain showed suppression; inhibition at 50 µM (JEV strain AT31 [1]; [5]): 91.6% |
| C=C1C(=O)O[C@@H]2C[C@@]3(C)CCCC(=C)[C@@H]3C[C@H]12 [isoalantolactone] |  | 98.6 |  |
| O=c1cc(-c2ccc(O)c(O)c2)oc2cc(O)cc(O)c12 [luteolin] |  | 19.3 |  |
| O[C@H]1[C@H]2c3cc4c(cc3CN3CCC(=C[C@@H]1O)[C@H]23)OCO4 [lycorine] | 0.34 |  | inhibition at 50 µM (JEV strain AT31 [1]; [5]): 92.5%; SI (CC50/IC50) (JEV strain AT31 [2]): > 293.9 |
| COc1ccc2c(c1O)-c1c(O)c(OC)cc3c1[C@H](C2)[N+](C)(C)CC3 [magnoflorine] |  | -3.88 |  |
| O=C1CCC[C@@H]2[C@H]3CCCN4CCC[C@@H](CN12)[C@@H]34 [matrine] |  | 11.1 |  |
| C[C@@H]1O[C@@H](O[C@H]2C[C@@H](O)[C@]3(CO)[C@H]4[C@H](O)C[C@]5(C)[C@@H](C6=CC(=O)OC6)CC[C@]5(O)[C@@H]4CC[C@]3(O)C2)[C@H](O)[C@H](O)[C@H]1O [ouabain] | 0.0522 | 99.8 | inhibition at 0.196 µM (JEV strain AT31 [3]): > 90%; inhibition of JEV during treatment (JEV strain AT31 [4]; 10 μM, during infection (0 to 1 h)): robust inhibition; inhibition of JEV posttreatment (JEV strain AT31 [4]; 10 μM): full inhibitory effects; suppression of JEV in pretreatment (JEV strain AT31 [4]; 10 μM): neither digoxin nor ouabain showed suppression; suppression of JEV in virucidal treatment (JEV strain AT31 [4]): neither digoxin nor ouabain showed suppression |
| Oc1cc(O)c2c(c1)OC(c1ccc(O)c(O)c1)C(OC1(c3ccc(O)c(O)c3)Oc3cc(O)cc(O)c3C(O)C1O)C2 (stereo not drawn) [procyanidin] | 5.43 |  | inhibition at 50 µM (JEV strain AT31 [1]; [5]): 99.4%; SI (CC50/IC50) (JEV strain AT31 [2]): > 18.43 |
| O=c1c(-c2ccc(O)cc2)coc2c([C@@H]3O[C@H](CO)[C@@H](O)[C@H](O)[C@H]3O)c(O)ccc12 [puerarin] |  | -10.6 |  |
| OC[C@H]1O[C@H](OC[C@H]2O[C@H](O[C@]3(CO)O[C@H](CO)[C@@H](O)[C@@H]3O)[C@H](O)[C@@H](O)[C@@H]2O)[C@H](O)[C@@H](O)[C@H]1O [raffinose] |  | -6.42 |  |
| CC[C@H]1CN2CC[C@]3(C(=O)Nc4ccccc43)[C@@H]2C[C@@H]1/C(=C\OC)C(=O)OC [rhynchophylline] |  | 16.5 |  |
| O[C@@H]1[C@@H](O)[C@H](OC/C=C/c2ccccc2)O[C@H](CO[C@@H]2OC[C@H](O)[C@H](O)[C@H]2O)[C@H]1O [rosavin] |  | 17.2 |  |
| COc1c2c(cc3c1-c1c(cc4c(c1OC)OCO4)C[C@H](C)[C@H](C)C3)OCO2 [schisandrin C] |  | 61.2 |  |
| COc1cc2c(c(OC)c1OC)-c1c(cc(OC)c(OC)c1OC)C[C@H](C)[C@H](C)C2 [schizandrin A] | 6.63 | 98.6 | SI (CC50/IC50) (JEV strain AT31 [2]): 15.07 |
| COc1cc2c(c(OC)c1OC)-c1c(cc3c(c1OC)OCO3)CC(C)C(C)C2 (stereo not drawn) [schizandrin B] | 3.14 | 92.4 | SI (CC50/IC50) (JEV strain AT31 [2]): > 31.89 |
| O=C1CCC[C@@H]2[C@H]3CCCN4CCC[C@H](CN12)[C@@H]34 [sophoridine] |  | -7.2 |  |
| COc1cc2oc(=O)ccc2c(OC)c1C[C@@H](O)C(C)(C)O [toddalolactone] |  | 14.2 |  |
| CC1=CCC2CC1C2(C)C (stereo not drawn) [α-Pinene] |  | -0.747 |  |
| C[C@@H]1O[C@@H](O[C@H]2[C@H](O[C@H]3CC[C@@]4(C)[C@@H](CC[C@]5(C)[C@@H]4CC=C4[C@@H]6CC(C)(C)CC[C@]6(C(=O)O)CC[C@]45C)[C@]3(C)CO)OC[C@H](O)[C@@H]2O)[C@H](O)[C@H](O)[C@H]1O [α-hederin] |  | 90.1 |  |
| CC[C@H](CC[C@@H](C)[C@H]1CC[C@H]2[C@@H]3CC=C4C[C@@H](O)CC[C@]4(C)[C@H]3CC[C@]12C)C(C)C [β-Sitosterol] |  | 13 |  |
